Experimental findings from the supplement of paper PMC9931576 are described below.

Human monoclonal antibodies against the spike receptor-binding domain (heavy:light variable regions). IC50 against pseudoviruses bearing the spike of naturally observed variants; lower = stronger; >10 µg/ml means not reached at the top dose. No active / inactive call. The stated detection limit is 0.0005 µg/ml; values near or below 0.001 µg/ml lie at the floor of the assay. A value given as a limit tells only on which side of the number the result lay.

B1: BD55-5599 (protein)
chain 1: QVQLVQSGAEVKRPGSSVKVSCKASGGPFSSYAISWVRQAPGRGLEWMGRIIPILGITNYPQNFQGRVTLMADKSTSTVYMELSSLRSEDTAIYYCARDVEWSPDFLRGPRGGDYWGQGTLVTVSS
chain 2: EIVLTQSPGTLSLSPGDRATLSCRASQSVRGSDLAWYQQRPGQAPRLLIYDASSRATGIPDRFSGSGSGTDFTLTISRLEPEDFAVYYCQQYGSSLSFTFGPGTKVEFK
B2: BD55-1075 (protein)
chain 1: EVRLVESGGGLVKPGGSLRLSCAASGFVLDTYDMNWVRQAPGKGLEWVSSITTSGSYIYYADSVKGRFTISRDNAKNSVYLQMESLRAEDTALYYCARELGVYGDHFGDHWGQGTLVTVSS
chain 2: QSVLTQPPSASGTPGQRVTISCSGSSSNIGTNSVNWYQQVPGTAPKLLIYTNIKRPSGVPDRFSGSKSGTSGSLAISGLQSEDEADYYCAAWDDSLNGYVFGAGTRVTVL
B3: BD55-5623 (protein)
chain 1: EVQLVQSGAEVKKPGESLKISCKGSGHSFTSQWIGWVRQMPGKGLEWMGIIYPGDSETKYSPSFQGQVTISADKSISTAYLQWSSLKASDTAMYYCASSGGLRWNFEYWGQGTQVTVSS
chain 2: DIVMTQSPDSLAVSLGERATINCKSSQSVLYSSNNKNYLAWYQQKPGQPPKLLIYWASTRESGVPDRFSGSGSGTDFTLTISSLQAEDVAVYYCQQYYSTLYTFGPGTKLEIK
B4: BD55-5555 (protein)
chain 1: EVQLVESGGGLIQPGGSLRLSCAVSGFSMNSNYMTWVRQAPGKGLEWISVVYNGGGTYYADSVKGRFTISRDIPNNTLYLQMSSLRAEDTAMYYCARGNNYGDDWFDPWGQGTQVTVSS
chain 2: EIVLTQSPATLSLSPGDRATLSCRASQSDNRYLAWYQQKPGQAPRLLIYDVSNRATAIPARFSGSGSGTEFTLTISNLEPEDFAVYYCQQRNKWPPTFTFGQGTKLEIK
B5: BD55-5610 (protein)
chain 1: EVQLVESGGGLIQPGRSLRLSCAASGFTFDDYALHWVRQPPGKGLQWVSGISWNGGDILYADSVKGRFTISRDNAKNSLFLQMNSLRADDTALYYCAKAPLGELLHNWFDSWGQGTLVTVSS
chain 2: EIVLTQSPATLSLSPGERATLSCRASQSVSTYLAWYQQKPGQAPRLLIYDTSNRAAGTPARFSGGGFGTDFTLTIDSLEPEDFAVYYCQQRGNWLITFGQGTRLEIK
B6: BD55-5569 (protein)
chain 1: QITLKESGPALVKPTQTLTLTCTFSGFSLTTSRVSVGWIRQPPGKALEWLALIYWDDDKRYSPSLKTRLTITKDTSKNQVVLTMTNMDPVDTATYYCAHIGGRGFQQLLHWFDPWGQGALVTVSS
chain 2: QSVLSQPPSASGTPGQRVTISCSGSSSNIGSNTVNWYQQLPGTAPKLLIYSDDQRPSGVPDRFSGSKSGTSASLAISGLQSGDEADYYCASWDDSLNGPVFGGGTKLTVL
B7: BD55-5630 (protein)
chain 1: QVQLVQSGAEVKKPGASVKVSCKASGYTFTNYDINWVRQATGQGLEWMGWMNPNSGDTGYAHKFEGRVTMTRNTAINTAYMELSNLRSEDTAVYYCAIMYGSGSGALRYYYYVMDVWGQGTTVTVSS
chain 2: DIQMTQSPSSLSASVGDRVTITCRASQSIDNNLNWYQQKPGKAPKLLIVAASSLQGGVPSRFSGAGSGTDFTLTINSLQPEDFAIYYCQQSYSFPGTFGPGIKVDIK
B8: BD55-5575 (protein)
chain 1: EVQLVESGGGLVQPGGSLRLSCVASGFTFSNYAMHWVRQAPGKGLEYVSSITSDGSGTFYANSVKDRFTISRDNSKNTLYLQLGSLRTEDMAVYFCSRESRVVVDATLDFWGQGTLVTVSS
chain 2: DIQMTQSPSSLSASVGDRVTITCRASQSIARYLNWYQLKPGKAPKLLIYSASSLQGGVPSRFSGSGSGTDFTLTINGLQPEDFATYYCQQSYITPQYTFGQGTKLDMK
B9: BD55-5594 (protein)
chain 1: QVQLVQSGAEVKKPGSSVKVSCRASGGTFSSYGINWVRQAPGRGLEWMGRITPIPGIANYAQKFQGRVTITADKSTSTAYMELSSLRSDDTAVYYCARESPGYSGYDATTIDAFHFWGQGTMVTVSS
chain 2: QSVLTQPPSVSGAPGQRVTISCTGSSSNIGAGYDVHWYQQLPGTAPKLLIYDNNNRPSGVPDRFSGSKSGTSASLAITGLQAEDEADYYCQSYDSRLSGSGVVFGGGTKLTVL
B10: BD55-5564 (protein)
chain 1: QVQLVESGGGVVQPGRSLKLSCAASGFPFSTYAMHWVRQAPGKGLEWVAVISFDSNDEYYADSVKGRFTISRDNSKNTLYLQMNSLRAEDTAVYYCARAGVLRYFDWLLSSGFASWGQGTLVTVSS
chain 2: DIQMTQSPSFLSASVGDRVTITCQASQDIRNYLNWYQQKPGKAPKLLIADASSLETGVPSRFSGSGSGTHFIITISSLQPEDIATYYCQQYYNLPSFGQGTKLEIK
B11: BD55-5568 (protein)
chain 1: QVQLVESGGGVVRPGRSLRISCVVSGFTFNTYSMHWVRQAPGKGLEWVAVISEDETNKNYADFAEGRFTISRDNSKNTVFLQMNRLRAEDTAVYYCARDRAYYDMLAGYSHYYVGLDVWGQGTTVTVSS
chain 2: VVMTQSPLSLPVTLGQPASISCTSSQSLVHSDGDTYLSWFQQRPGQSPRRLIYKVSNRDSGVPDRFSGSGSGTEFTLTISRVEAEDVGVYYCMQATHWPPWTFGQGTKVEIK
B12: BD55-5625 (protein)
chain 1: EVQVVESGGDLIQPGGSLRLSCAVSGFSVSDNYMNWVRQAPGKGLEWVSLIYRDGNTNYADSVKGRFTISRDNSKNTLYLQMNSLRAEDTAVYYCARVRTNLIMLFGVVTFESGHYFYYMDVWGTGTTVAVSS
chain 2: QSVLTQPPSVSAAPGQKVSISCSGSSSNIANTDVSWYQQLPGTGPKLLIYDNDKRPSGISDRFSGSKSGTSATLGITGLHTGDEADYYCGTWDSSLSLYVFGSGTKVTVL

The first experiment concerns the target SARS-CoV-2 Omicron BA.1 spike pseudovirus. Put plainly: pseudovirus neutralization IC50; higher = weaker neutralization. The protocol:
(§1)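 Single-round VSV luciferase pseudovirus mixed with antibody dilutions for 1 h and put on Huh-7 cells for about a day; IC50 from the dose curve.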
B1: the “pseudovirus neutralization IC50” value amounted to 0.00213 µg/mL.

Consider B2, for which the “pseudovirus neutralization IC50” value is greater than 10 µg/mL.

Consider B3, for which the “pseudovirus neutralization IC50” value is greater than 10 µg/mL.

Regarding B4, the “pseudovirus neutralization IC50” value is greater than 10 µg/mL.

B5: the “pseudovirus neutralization IC50” value was greater than 10 µg/mL.

On to B6, for which the “pseudovirus neutralization IC50” value was greater than 10 µg/mL.

Regarding B7, the “pseudovirus neutralization IC50” value was determined as 1.8 µg/mL.

In the case of B8, the “pseudovirus neutralization IC50” value was greater than 10 µg/mL.

On to B9, for which the “pseudovirus neutralization IC50” value is greater than 10 µg/mL.

Regarding B10, the “pseudovirus neutralization IC50” value is greater than 10 µg/mL.

With B11, the “pseudovirus neutralization IC50” value was 1.28 µg/mL.

In the case of B12, the “pseudovirus neutralization IC50” value stood at 3.54 µg/mL.

Another experiment deals with SARS-CoV-2 Omicron BA.2 spike pseudovirus. Described as above. The protocol:
as §1
In the case of B1, the “pseudovirus neutralization IC50” value worked out at 0.00123 µg/mL.

With B2, the “pseudovirus neutralization IC50” value was greater than 10 µg/mL.

For the molecule B3, the “pseudovirus neutralization IC50” value is greater than 10 µg/mL.

As to B4, the “pseudovirus neutralization IC50” value is greater than 10 µg/mL.

In the case of B5, the “pseudovirus neutralization IC50” value is greater than 10 µg/mL.

Take B6: the “pseudovirus neutralization IC50” value is greater than 10 µg/mL.

For B7, the “pseudovirus neutralization IC50” value stood at 0.659 µg/mL.

Turning to B8, the “pseudovirus neutralization IC50” value is greater than 10 µg/mL.

In the case of B9, the “pseudovirus neutralization IC50” value is greater than 10 µg/mL.

With B10, the “pseudovirus neutralization IC50” value is greater than 10 µg/mL.

With B11, the “pseudovirus neutralization IC50” value worked out at 1.76 µg/mL.

With B12, the “pseudovirus neutralization IC50” value is 5.47 µg/mL.

The next experiment addresses SARS-CoV-2 Omicron BA.2.75 spike pseudovirus. The experiment is described as above. The protocol: as §1
As to B1, the “pseudovirus neutralization IC50” value was found to be 0.00644 µg/mL.

Turning to B2, the “pseudovirus neutralization IC50” value is greater than 10 µg/mL.

For the molecule B3, the “pseudovirus neutralization IC50” value was greater than 10 µg/mL.

On to B4, for which the “pseudovirus neutralization IC50” value was greater than 10 µg/mL.

In the case of B5, the “pseudovirus neutralization IC50” value is greater than 10 µg/mL.

On to B6, for which the “pseudovirus neutralization IC50” value is greater than 10 µg/mL.

B7: the “pseudovirus neutralization IC50” value was 0.992 µg/mL.

For B8, the “pseudovirus neutralization IC50” value was greater than 10 µg/mL.

On to B9, for which the “pseudovirus neutralization IC50” value is greater than 10 µg/mL.

Regarding B10, the “pseudovirus neutralization IC50” value is greater than 10 µg/mL.

For B11, the “pseudovirus neutralization IC50” value worked out at 2.73 µg/mL.

Regarding B12, the “pseudovirus neutralization IC50” value was 3.42 µg/mL.

A further experiment addresses SARS-CoV-2 Omicron BA.5 spike pseudovirus. The experiment is described as above. On the procedure:
as §1
For B1, the “pseudovirus neutralization IC50” value is greater than 10 µg/mL.

With B2, the “pseudovirus neutralization IC50” value was greater than 10 µg/mL.

In the case of B3, the “pseudovirus neutralization IC50” value was greater than 10 µg/mL.

B4: the “pseudovirus neutralization IC50” value is greater than 10 µg/mL.

Take B5: the “pseudovirus neutralization IC50” value is greater than 10 µg/mL.

Turning to B6, the “pseudovirus neutralization IC50” value was greater than 10 µg/mL.

Consider B7, for which the “pseudovirus neutralization IC50” value stood at 2.22 µg/mL.

Turning to B8, the “pseudovirus neutralization IC50” value was greater than 10 µg/mL.

For B9, the “pseudovirus neutralization IC50” value was greater than 10 µg/mL.

With B10, the “pseudovirus neutralization IC50” value is greater than 10 µg/mL.

In the case of B11, the “pseudovirus neutralization IC50” value is 1.87 µg/mL.

As to B12, the “pseudovirus neutralization IC50” value came out at 1.02 µg/mL.

In the next experiment the target is SARS-CoV-2 Omicron BQ.1.1 spike pseudovirus. The description is as above. The protocol:
as §1
As for B1, the “pseudovirus neutralization IC50” value is greater than 10 µg/mL.

For B2, the “pseudovirus neutralization IC50” value was greater than 10 µg/mL.

Take B3: the “pseudovirus neutralization IC50” value is greater than 10 µg/mL.

As for B4, the “pseudovirus neutralization IC50” value was greater than 10 µg/mL.

On to B5, for which the “pseudovirus neutralization IC50” value was greater than 10 µg/mL.

For the molecule B6, the “pseudovirus neutralization IC50” value was greater than 10 µg/mL.

B7: the “pseudovirus neutralization IC50” value is 1.51 µg/mL.

Take B8: the “pseudovirus neutralization IC50” value was greater than 10 µg/mL.

On to B9, for which the “pseudovirus neutralization IC50” value is greater than 10 µg/mL.

On to B10, for which the “pseudovirus neutralization IC50” value was greater than 10 µg/mL.

In the case of B11, the “pseudovirus neutralization IC50” value stood at 2.4 µg/mL.

Take B12: the “pseudovirus neutralization IC50” value was found to be 5.09 µg/mL.

The next experiment addresses SARS-CoV-2 Omicron XBB spike pseudovirus. The description is as above. On the procedure:
as §1
For B1, the “pseudovirus neutralization IC50” value was greater than 10 µg/mL.

For B2, the “pseudovirus neutralization IC50” value was greater than 10 µg/mL.

For B3, the “pseudovirus neutralization IC50” value is greater than 10 µg/mL.

Regarding B4, the “pseudovirus neutralization IC50” value was greater than 10 µg/mL.

On to B5, for which the “pseudovirus neutralization IC50” value is greater than 10 µg/mL.

B6: the “pseudovirus neutralization IC50” value was greater than 10 µg/mL.

Take B7: the “pseudovirus neutralization IC50” value worked out at 0.875 µg/mL.

Take B8: the “pseudovirus neutralization IC50” value was greater than 10 µg/mL.

Take B9: the “pseudovirus neutralization IC50” value was greater than 10 µg/mL.

Turning to B10, the “pseudovirus neutralization IC50” value is greater than 10 µg/mL.

On to B11, for which the “pseudovirus neutralization IC50” value turned out to be 1.3 µg/mL.

As to B12, the “pseudovirus neutralization IC50” value turned out to be 4.2 µg/mL.

For a further experiment, the target named is SARS-CoV-2 early D614G spike pseudovirus. The experiment is described as above. The protocol: as §1
As to B1, the “pseudovirus neutralization IC50” value was found to be 0.001 µg/mL.

For the molecule B2, the “pseudovirus neutralization IC50” value worked out at 0.0344 µg/mL.

On to B3, for which the “pseudovirus neutralization IC50” value is greater than 10 µg/mL.

With B4, the “pseudovirus neutralization IC50” value was greater than 10 µg/mL.

Consider B5, for which the “pseudovirus neutralization IC50” value was 0.906 µg/mL.

As to B6, the “pseudovirus neutralization IC50” value is greater than 10 µg/mL.

Turning to B7, the “pseudovirus neutralization IC50” value was 1.22 µg/mL.

In the case of B8, the “pseudovirus neutralization IC50” value is greater than 10 µg/mL.

Turning to B9, the “pseudovirus neutralization IC50” value turned out to be 0.0373 µg/mL.

Regarding B10, the “pseudovirus neutralization IC50” value was 0.246 µg/mL.

Consider B11, for which the “pseudovirus neutralization IC50” value came out at 0.257 µg/mL.

Regarding B12, the “pseudovirus neutralization IC50” value is 1.65 µg/mL.
